Anti-infective test results gathered from many reports (values: NIAID ChemDB through PubChem).

All rows: whole-cell or culture tests; organism: HIV-1; read-out: EC90

Conditions beyond the fields shown may differ between rows.

SMILES,cell line,mutations,read by,setting,strain or isolate,value
CC(C)(C)NC(=O)[C@@H]1CN(Cc2cccnc2)CCN1C[C@@H](O)C[C@@H](Cc1ccccc1)C(=O)N[C@H]1c2ccccc2C[C@H]1O,PBMC,PR-L10I K20R M36I/V P63L/S L90M,p24,-,BR97 (PR L10I K20R M36I/V P63L/S L90M),0.011 µM
COc1oc([C@H]2C/C(=C/C(C)=C/c3ccc(Cl)cc3)CO2)c(C)c(=O)c1C,PBMC + LC5-RIC,-,fluorescence,-,LAI,2.937 µM
Cc1c(Cc2ccccc2)[nH]c(=O)[nH]c1=O,MT-4,-,MTT / virus yield,-,IIIB,>200 µM
C1CNCCNCCCN[C@H]([C@@H]2CNCCCNCCNCCCN2)CNC1,PBL,-,p24 / ELISA,-,IIIB,3.77 µM
Cc1cccc(C)c1OCC(=O)N[C@@H](Cc1ccccc1)[C@@H](O)C[C@H](Cc1ccccc1)NC(=O)[C@H](C(C)C)N1CCCNC1=O,PBMC,PR-M46I L63P A71V V82F I84V,p24,-,HXB2,0.54 µM
Cc1ccnc2c1NC(=O)c1cccnc1N2C1CC1,ACH2 + TZM-bl,-,luciferase,-,NL4-3,0.179 µM
CCn1nc(Cc2ccc(F)c(F)c2)cc1C1CCN(C[C@H]2CN([C@@H](C(=O)O)C(C)C)C[C@@H]2c2cccc(F)c2)CC1,HeLa,-,β-galactosidase,50% human serum,BaL,0.3 µM
O=C1Nc2cccnc2N(C2CC2)c2ncccc21,MT-4,-,cytopathic effect / MTT,-,IIIB,4 µM
O=C(Nc1cc(S(=O)(=O)O)cc2cc(S(=O)(=O)O)c(N=Nc3ccc(N=Nc4c(S(=O)(=O)O)cc5cc(S(=O)(=O)O)cc(NC(=O)c6cccc(Cl)c6Cl)c5c4O)cc3)c(O)c12)c1ccc(Cl)cc1Cl,PBMC,-,-,-,BaL,0.24–0.63 µg/mL
COc1nc(Cc2ccccc2)c(C)c(=O)[nH]1,MT-4,-,MTT / virus yield,-,IIIB,>200 µM
CCc1cc(NCc2nc3c(Cl)ccc(Cl)c3o2)c(=O)[nH]c1C,MT-4,-,p24,-,IIIB,0.11 µM
COc1oc([C@H]2C/C(=C/C(C)=C/c3cccc(Cl)c3)CO2)c(C)c(=O)c1C,PBMC + LC5-RIC,-,fluorescence,-,LAI,14.1 µM
CCN(c1ncccc1NC(C)(C)C)C1CCN(C(=O)c2cc3cc(NS(C)(=O)=O)ccc3[nH]2)CC1,PBMC,-,p24,-,Isolate 472,0.18 µM
Cc1cn([C@H]2C[C@H](C#N)[C@@H](CO)O2)c(=O)[nH]c1=O,C8166,-,cytopathic effect,-,RF,>100 µg/mL
CC(C)c1c(COC(N)=O)cn(Cc2ccncc2)c1Sc1cc(Cl)cc(Cl)c1,-,RT-K103N,cytopathic effect / MTT,-,-,30 µM
CC(C)[C@H](NC(=O)OCc1ccccc1)C(=O)N[C@@H](Cc1ccccc1)[C@@H](O)[C@H](O)[C@H](Cc1ccccc1)NC(=O)[C@@H](NC(=O)OCc1ccccc1)C(C)C,MT-2,-,p24 / ELISA,-,RF,0.052 µM
CC(C)c1c(CO)cn(Cc2ccncc2)c1Sc1ccccc1,MT-4,-,cytopathic effect / MTT,-,IIIB,0.15 µM
COc1oc([C@H]2C/C(=C/C(C)=C/c3ccc(F)cc3F)CO2)c(C)c(=O)c1C,PBMC + LC5-RIC,-,fluorescence,-,LAI,0.086 µM
N#CC[C@H](C1CCCC1)n1cc(-c2ncnc3[nH]ccc23)cn1,Primary T lymphocytes,A62V V75I F77L F116Y Q151M,p24 / ELISA,-,-,1.5 µM
CC(C)c1c(CO)cn(Cc2ccncc2)c1Sc1cc(Cl)cc(Cl)c1,MT-4,-,cytopathic effect / MTT,-,IIIB,0.03 µM
CC[C@@H](C)[C@H](C(=O)O)N1C[C@H](CN2CCC(c3cc(Cc4ccc(O)cc4)nn3CC)CC2)[C@@H](c2cccc(F)c2)C1,HeLa,-,β-galactosidase,-,BaL,<0.00014 µM
CCc1c(Cc2ccccc2)nc(OC)[nH]c1=O,MT-4,-,MTT / virus yield,-,IIIB,157 µM
O=c1[nH]cnc2c1ncn2[C@H]1CC[C@@H](CO)O1,MT-4,-,cytopathic effect / MTT,-,IIIB,11.3 µM
Cc1cn([C@H]2C[C@H](N=[N+]=[N-])[C@@H](CO)O2)c(=O)[nH]c1=O,MT-4,RT-K65R L74V M184V Y115F,p24,-,XM-ABC-resistant,0.04 µM
FC(F)(F)c1ccnc2c1NC(=NC1CC1)c1cccnc1N2C1CC1,MT-4,-,cytopathic effect / MTT,-,IIIB,>200 µM
CCc1cc(NCc2nc3c(Cl)ccc(Cl)c3o2)c(=O)[nH]c1C,MT-4,-,antigen,-,MF,0.1 µM
CC(C)(C)NC(=O)[C@@H]1C[C@@H]2CCCC[C@@H]2CN1C[C@@H](O)[C@H](Cc1ccccc1)NC(=O)[C@H](CC(N)=O)NC(=O)c1ccc2ccccc2n1,PBL,-,RT activity,-,LAI,0.024 µM
O=c1[nH]cnc2c1ncn2[C@H]1CC[C@@H](CO)O1,MT-4,RT-K65R L74V M184V Y115F,p24,-,XM-ABC-resistant,52 µM
Nc1ccn([C@@H]2CS[C@H](CO)O2)c(=O)n1,Primary T lymphocytes,M184V,p24 / ELISA,-,-,>10 µM
CCn1nc(Cc2ccc(S(=O)(=O)c3ccccc3)cc2)cc1C1CCN(C[C@H]2CN([C@@H](C(=O)O)C(C)(C)C)C[C@@H]2c2cccc(F)c2)CC1,HeLa,-,β-galactosidase,50% human serum,BaL,0.0037 µM
Cc1nnc(C(=O)NC(C)(C)c2nc(C(=O)NCc3ccc(F)cc3)c(O)c(=O)n2C)o1,ACH2 + TZM-bl,-,luciferase,-,NL4-3,0.00333 µM
CC(C)CN(C[C@@H](O)[C@H](Cc1ccccc1)NC(=O)[C@@H](NC(=O)CNCc1cccc(F)c1)C(C)(C)C)S(=O)(=O)c1ccc(N)cc1,PBMC,-,virus yield,-,IIIB,0.04 µM
CC(C)CN(C[C@@H](O)[C@H](Cc1ccccc1)NC(=O)O[C@H]1CCOC1)S(=O)(=O)c1ccc(N)cc1,MT-4,PR-D30N,p24,-,NL4-3,0.02 µM
COCCNC(=O)[C@@H](NC(=O)[C@H](Cc1ccc(OC)c(OC)c1OC)C[C@H](O)[C@H](Cc1ccccc1)NC(=O)OC(C)(C)C)C(C)C,PBL,-,RT activity,-,LAI,0.0381 µM
COc1oc([C@H]2C/C(=C/C(C)=C/c3ccc(C(F)(F)F)cc3Cl)CO2)c(C)c(=O)c1C,PBMC + LC5-RIC,-,fluorescence,-,LAI,0.0741 µM
C1CNCCNCCCN(CCCN2CCCNCCNCCCNCC2)CCNC1,HuT-78 + HUT 78,-,antigen,-,IIIB,3.98 µM
COc1oc([C@H]2C/C(=C/C(C)=C/c3ccc(OC(C)=O)cc3)CO2)c(C)c(=O)c1C,PBMC + LC5-RIC,-,fluorescence,-,LAI,0.2698 µM
O=c1[nH]cnc2c1ncn2C1CC[C@@H](CO)O1,Primary T lymphocytes,A62V V75I F77L F116Y Q151M,p24 / ELISA,-,-,83.5 µM
CCCOc1ccc(Cc2cc(C3CCN(C[C@H]4CN([C@@H](C(=O)O)[C@@H](C)CC)C[C@@H]4c4cccc(F)c4)CC3)n(CC)n2)cc1,HeLa,-,β-galactosidase,50% human serum,BaL,0.1 µM
COc1oc([C@H]2C/C(=C/C(C)=C/c3cccc(C(F)(F)F)c3)CO2)c(C)c(=O)c1C,PBMC + LC5-RIC,-,fluorescence,-,LAI,0.2422 µM

A second listing of 3 rows from above:

SMILES,cell line,mutations,read by,setting,strain or isolate,value
CCN(c1ncccc1NC(C)(C)C)C1CCN(C(=O)c2cc3cc(NS(C)(=O)=O)ccc3[nH]2)CC1,PBMC,-,p24,-,Isolate 472,0.18 µM
CCc1cc(NCc2nc3c(Cl)ccc(Cl)c3o2)c(=O)[nH]c1C,MT-4,-,antigen,-,MF,0.1 µM
O=C1Nc2cccnc2N(C2CC2)c2ncccc21,MT-4,-,cytopathic effect / MTT,-,IIIB,4 µM

An empty or dashed field is not shown. ECn is the concentration giving n% inhibition of infection, replication or growth. a–b is a range or a potency band.